Results of unrelated studies side by side (data: NIAID ChemDB).

All rows: whole-cell or culture tests; agent: Herpes simplex virus 1; method: plaque count; endpoint: EC50

An empty or dashed field is not shown. Conditions beyond the fields shown may differ between rows. ECn is the concentration giving n% inhibition of infection, replication or growth.

structure,strain,cell line,result
Cc1cn([C@@H]2O[C@H](CO)[C@@H](O)[C@@H]2F)c(=O)[nH]c1=O,77,VERO,0.65 µM
Nc1nc2c(ncn2C/C=C\CO)c(=O)[nH]1,C42,BHK,25 µM
O=c1[nH]c(=O)n([C@@H]2O[C@H](COP(=O)(O)O)[C@@H](O)[C@@H]2O)cc1/C=C/Br,MP,HELF,0.005 µg/mL
CSc1nsc(-c2cccnc2)c1C#N,F strain,VERO,>20 µM
O=c1[nH]c(=O)n([C@H]2C[C@H](O)[C@@H](CO)O2)cc1I,77,HELF,70 µM
Cn1cc(C(=O)NCc2ccc(Cl)cc2)c(=O)c2cc(CN3CCOCC3)ccc21,11360 (ACV-resistant),HFF,2.9 µM
O=C(OC[C@H]1O[C@@H](OC(=O)c2cc(O)c(O)c(O)c2)[C@H](O)[C@@H](OC(=O)c2cc(O)c(O)c(O)c2)[C@@H]1O)c1cc(O)c(O)c(O)c1,F,CV-1,0.15 µg/mL
Cn1cc(C(=O)NCc2ccc(Cl)cc2)c(=O)c2cc(CN3CCOCC3)ccc21,6 isolates,,3.5 µM
[O-][n+]1onc2ncnc(N3CC[N+]4(CC3)CC[N+]3(CCN(c5ncnc6no[n+]([O-])c56)CC3)CC4)c21,ANGPR,GMK,9.8 µM
NC(N)NN=c1/c(=N\NC(N)N)c2cc3ccccc3cc2/c1=N\NC(N)N,MP,HEP-2,2.5 µM
Nc1nc2c(ncn2CC(CO)OCP(=O)(O)O)c(=O)[nH]1,S,WI-38,0.2 µM
CCCCCCCC/C=C\CCCCCCCOCCOP1(=O)CO[C@@H](Cn2ccc(N)nc2=O)CO1,HL-3,HFF,0.07 µM
Cc1cn([C@@H]2O[C@H](CO)[C@@H](O)[C@@H]2O)c(=O)[nH]c1=O,WT-34,HEL,0.33 µM
Nc1ccn(C[C@@H](CO)OCP(=O)(O)O)c(=O)n1,E-377,HFF,5.5 µM
Nc1nc2c(ncn2CC[C@H](O)CO)c(=O)[nH]1,C42 (acyclovir-resistant),VERO,180 µM
Cc1cn([C@@H]2O[C@H](CO)[C@@H](O)[C@@H]2F)c(=O)[nH]c1=O,Shealey,VERO,0.9 µM
Nc1ncnc2c1ncn2[C@@H]1O[C@H](CO)[C@@H](O)[C@@H]1O,Clinical isolate Wilson,MEF,11 µM
Nc1ccn(C[C@@H](CO)OCP(=O)(O)O)c(=O)n1,HL-3,HFF,1.7 µg/mL
C[C@@H](c1ccccc1)N(CC(=O)Nc1ccc(-c2csc(N)n2)cc1)C(=O)c1ccncc1,DLSPTK,BHK-21/C13,0.12 µM
Cn1cc(C(=O)NCc2ccc(Cl)cc2)c(=O)c2cc(/C=C\CO)cc(F)c21,DJL,VERO,2.5 µM
O=c1[nH]c(=O)n([C@@H]2O[C@H](CO)[C@@H](O)[C@@H]2O)cc1/C=C/Cl,MP,HELF,0.017 µg/mL
Nc1ccn(C[C@H]2COP(=O)(O)CO2)c(=O)n1,E-377,HFF,15.2 µM
Nc1nc2c(ncn2C[C@]2(CO)C[C@H]2CO)c(=O)[nH]1,5 isolates,MRC-5,0.013 µg/mL
CCCCCCCC/C=C\CCCCCCCOCCCOP1(=O)CO[C@@H](Cn2ccc(N)nc2=O)CO1,E-377,HFF,0.05 µM
Nc1nc(=O)n([C@@H]2O[C@H](CO)[C@@H](O)[C@@H]2F)cc1I,F-AMAU-C2,VERO,8 µM
Nc1nc2c(ncn2COC(CO)CO)c(=O)[nH]1,ICI,HeLa,0.52 µM
CC(C)=CCc1cc(-c2coc3cc(O)cc(O)c3c2=O)cc(O)c1O,HF,CV-1,>10 µg/mL
O=c1ccn([C@@H]2O[C@H](CO)[C@@H](O)[C@H]2O)c(=O)[nH]1,77,HELF,120 µM
O=C1O[C@H]2[C@@H]3OC(=O)c4cc(O)c(O)c(O)c4-c4c(cc(O)c(O)c4O)C(=O)OC[C@H]2O[C@@H](OC(=O)c2cc(O)c(O)c(O)c2)[C@@H]3OC(=O)c2cc(O)c(O)c3c2[C@@H]2C1=CC(=O)[C@](O)(O3)C2(O)O,HF,CV-1,0.093 µg/mL
O=c1[nH]c(=O)n([C@@H]2O[C@H](CO)[C@@H](O)[C@@H]2O)cc1/C=C/Br,WT-34,HEL,0.024 µM
O=c1[nH]c(=O)n([C@H]2C[C@H](O)[C@@H](CO)O2)cc1I,HF,CV-1,16 µg/mL
Nc1nc2c(ncn2COCCO)c(=O)[nH]1,PAA-resistant,VERO,7.4 µg/mL
Cc1nsc(C)c1C#N,F strain,VERO,>1000 µM
Nc1nc2c(ncn2COC(CO)CO)c(=O)[nH]1,MGH 10,VERO,0.5 µM
O=C(NCc1ccc(Cl)cc1)c1c[nH]c2ccc(C#CCO)cc2c1=O,294,,15 µM
Cc1cn([C@@H]2O[C@H](CO)[C@@H](O)[C@@H]2O)c(=O)[nH]c1=O,77,HELF,0.24 µM
O=C(O)P(=O)(O)O,McIntyre,MEF,78.1 µg/mL
CCc1cn([C@H]2C[C@H](O)[C@@H](CO)O2)c(=O)[nH]c1=O,F-FIAC-C3,VERO,>200 µM
Cn1cc(C(=O)NCc2ccc(Cl)cc2)c(=O)c2cc(CN3CCOCC3)ccc21,KOS,VERO,3.8 µM
O=c1[nH]c(=O)n([C@H]2C[C@H](O)[C@@H](CO)O2)cc1/C=C/Br,F-AMAU-C2,VERO,280 µM
N#Cc1c(-c2ccccc2)nsc1Cl,F strain,VERO,>20 µM
O=c1[nH]c(=O)n([C@@H]2O[C@H](CO)[C@@H](O)[C@@H]2O)cc1/C=C/I,VR-3,HELF,0.014 µg/mL
O=C(NCc1ccc(Cl)cc1)c1cn2c3c(cc(CN4CCOCC4)cc3c1=O)OC(c1cccnc1)C2,4E,HFF,8.7 µM
O=C(O)P(=O)(O)O,F-FAU-C2,VERO,28 µM
Cc1cn([C@@H]2O[C@H](CO)[C@@H](O)[C@@H]2O)c(=O)[nH]c1=O,MP,HELF,0.29 µg/mL
CSc1nsc(-c2ccc(Cl)cc2Cl)c1C#N,F strain,VERO,>8 µM
Cc1nc(N(C)C(=O)Cc2ccc(-c3ccccn3)cc2)sc1S(N)(=O)=O,KT4,VERO,0.03 µM
[O-][n+]1onc2ncnc(N3CC[N+]4(CC3)CC[N+]3(CCN(c5ncnc6no[n+]([O-])c56)CC3)CC4)c21,K1,GMK,8.6 µM
Nc1nc2c(ncn2CC[C@@H](O)CO)c(=O)[nH]1,C42,BHK,23 µM
CSc1nsc(C)c1C#N,F strain,VERO,>100 µM
Nc1nc2c(ncn2CC[C@@H](O)CO)c(=O)[nH]1,C42,HEL,0.2 µM
NC(N)N/N=C1/C/C(=N\NC(N)N)c2cc3ccccc3cc21,MP,HEP-2,7.5 µM
CCCCCCCCCCCCCCCCCCOCCCOP1(=O)CO[C@@H](Cn2ccc(N)nc2=O)CO1,F,HFF,>1 µM
Nc1ncnc2c1ncn2[C@@H]1O[C@H](CO)[C@@H](O)[C@@H]1O,PFA-resistant,RK-13,30 µM
CCCCC(=O)OC[C@H]1O[C@@H](n2cnc3c(N)ncnc32)[C@@H](O)[C@@H]1O,Clinical isolate Wilson,MEF,11 µM
Cc1cn([C@@H]2O[C@H](CO)[C@H]2CO)c(=O)[nH]c1=O,11359 (TK-),HFF,>100 µg/mL

Again, the opening 6 rows:

structure	strain	cell line	result
Cc1cn([C@@H]2O[C@H](CO)[C@@H](O)[C@@H]2F)c(=O)[nH]c1=O	77	VERO	0.65 µM
Nc1nc2c(ncn2C/C=C\CO)c(=O)[nH]1	C42	BHK	25 µM
O=c1[nH]c(=O)n([C@@H]2O[C@H](COP(=O)(O)O)[C@@H](O)[C@@H]2O)cc1/C=C/Br	MP	HELF	0.005 µg/mL
CSc1nsc(-c2cccnc2)c1C#N	F strain	VERO	>20 µM
O=c1[nH]c(=O)n([C@H]2C[C@H](O)[C@@H](CO)O2)cc1I	77	HELF	70 µM
Cn1cc(C(=O)NCc2ccc(Cl)cc2)c(=O)c2cc(CN3CCOCC3)ccc21	11360 (ACV-resistant)	HFF	2.9 µM